Assay results reported in patent US12715896B2 (priority 2020, dated 2026).

Target: SARS-CoV-2 M^pro (Severe acute respiratory syndrome coronavirus 2, UniProt P0DTD1)
Assay: FRET-based enzymatic assay for SARS-CoV-2 main protease
Type: biochemical
Details: read-out: SARS-CoV-2 M^pro IC50; initial velocity; mean ± S.E. from 2 to 3 independent experiments

## CCCC[C@H](NC(=O)[C@@H]1[C@@H]2[C@H](CN1C(=O)[C@@H](NC(=O)NC1(CS(=O)(=O)C(C)(C)C)CCCCC1)C(C)(C)C)C2(C)C)C(=O)C(=O)NC1CC1 [Narlaprevir (29), Narlaprevir]
  IC50: 5.73 ± 0.67 µM
